According to US6180388A, “Enzymes and micro organisms with amidase activity which hydrolyze polyamides” (Rhone-Poulenc Fibres et Polymeres S.A., priority 1995, dated 2001):

Tested on: Comamonas acidovorans N 12 and strain PAM I
Experiment: Enzymatic hydrolysis of adipic acid/HMD oligomers with cells of Comamonas acidovorans N 12 and strain PAM I, analysis of the supernatant
Type: cell-based, Comamonas acidovorans; E. coli
Details: after 18 hours hydrolysis

| Compound | molar yield of monomer formed |
| --- | --- |
| O=C(O)CCCCC(=O)O [ADIPIC ACID, adipic acid] | 66% |
| NCCCCCCN [HMD, hexamethylenediamine] | 58% |
